Assay results as given in patent US9492554B2, “Methods and compositions related to viral inhibition” (Clemson University Research Foundation (CURF), priority 2009, dated 2016).

Test system: TAR RNA
Experiment: ITC titration of TAR RNA with Neomycin
Type: binding, HIV-1

neomycin
ΔH (20° C.): -22.1 ± 1.1 kcal/mol | N (Neomycin (80 μM) injected to TAR RNA (4 μM/molecule) at 20° C.): 1.09 ± 0.04
